Experimental data reported in paper PMC2671405.
For some of these results: A negative result means that nothing was seen under these conditions. For some of these results: Construct, isoform or probe ends are uncertain for at least one entry. For some of these results: Weaker means in comparison with the reference protein, sequence or condition of that experiment.

The chains behind the UniProt entries cited, without tags or fusion partners. Where a name states a change or a piece, a line headed by the entry shows the natural chain unless it says otherwise.
UniProt O25671: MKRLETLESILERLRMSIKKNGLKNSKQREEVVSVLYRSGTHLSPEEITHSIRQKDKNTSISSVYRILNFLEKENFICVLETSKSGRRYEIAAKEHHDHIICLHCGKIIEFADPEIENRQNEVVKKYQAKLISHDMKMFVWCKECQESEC

Key:
[1] = biological target: Fur (ferric uptake regulator, rFur, apo form) (Helicobacter pylori 26695) (UniProt O25671); assay: EMSA; details: apo (iron-free, EDTA), very little non-specific binding only at highest Fur (1.07 ug/mL); apo-BB, 2x stock: 24% glycerol, 40 mM Tris pH 8.0, 150 mM KCl, 2 mM DTT, 600 ug/mL BSA, 200 uM EDTA, 0.1 mg/mL sheared salmon sperm DNA; 1 ng labeled DNA; 37 C, 30 min; recombinant protein; residues 1-150; label: 5'-32P; probe letters rebuilt from the primers and the genome
[2] = biological target: Fur (ferric uptake regulator, rFur, apo form) (Helicobacter pylori 26695) (UniProt O25671); assay: competition EMSA; details: 5x, 10x, 25x cold competitor against each labeled sodB promoter, 2x stock: 24% glycerol, 40 mM Tris pH 8.0, 150 mM KCl, 2 mM DTT, 600 ug/mL BSA, 200 uM EDTA, 0.1 mg/mL sheared salmon sperm DNA, 1 ng labeled DNA, 37 C, 30 min, recombinant protein, residues 1-150, label: 5'-32P, probe letters rebuilt from the primers and the genome

“CCAAAGAGGGTAAAGAGAGCGGGATGAAAAGGTTTTTAAATCCATTTTCCCTATCCAAGATGAGCATAACCGCATCACTTTAGAGTATGCGGGTTGTGAATTTGGCAAGTCTAAATACACTGTTAGAGAAGCGATGGAGAGG (double strand) [rpoB promoter (negative control)]”: no binding [1].

“GCAACTCTCGTAATGTAAACATGTTTTCTCCTTGTGATCAGATAGCCTTATTGTAATCATTTTTTAATACTTTTTGGTAAATCTTTTCTTAAAAATGGATCTTTATGCAAATTTTGTGG (double strand) [sodB promoter WT 26695]”: binds ([2]; highest affinity (26695>=-5 bp swap>G27), apo-BB).

“GCAACTCTCGTAATGTAAACATGTTTTCTCCTTGTGATTAGATAGCCGTATTGTAATCATTTTTTAATACTTTTTGGTAAATCTTTTCTTAAAAATTAAATCGTTATGCAAATTTTGTAG (double strand) [sodB promoter WT G27]”: binds more weakly ([2]; affinity order 26695>=-5 bp swap>G27, apo-BB).

“GCAACTCTCGTAATGTAAACATGTTTTCTCCTTGTGATTAGATAGCCTTATTGTAATCATTTTTTAATACTTTTTGGTAAATCTTTTCTTAAAAATTAAATCGTTATGCAAATTTTGTAG (double strand) [sodB promoter -5 bp swap (C-5A)]”: binds ([2]; competes better than WT G27, apo-BB).
